Compound potency records, mixed from different reports. Data source: NIAID ChemDB in PubChem.

All rows: tests in culture; organism: Mycobacterium tuberculosis

Two numbers with a dash give a range or band. Neighbouring rows are from separate reports. An empty or dashed field is not shown. Percent inhibition refers to the dose given; in toxicity tests it is the harm to the cells. ECn: concentration that inhibits the pathogen or its effect by n%. MIC bound: limit read from a one-dose screen. MIC50, MIC90 and the like: level of inhibition, or share of isolates inhibited. Zones are inhibition diameters on agar.

SMILES	cell line	dose	conditions	read by	measure	strain or isolate	result
NNC(=O)c1cc2ccccc2nc1C12CC3CC(CC(C3)C1)C2				BACTEC	MIC	H37Ra	>6.25 µg/mL
Cc1cnc(/C=N/NC(N)=S)cn1					MIC	INH-r	12.5 µg/mL
Oc1cccc2cccnc12					MIC50	H37Rv	>10 µg/mL
Cc1c(C#N)c(=O)oc2cc(OCc3ccc(Br)cc3)ccc12		1 µM		fluorescence	inhibition	H37Rv	4.73%
[N-]=[N+]=[N-].[Na+]					MIC	H37Rv	40.63 µg/mL
COc1cc(C2SCCCCCCCCCCSC(c3ccc(O)c(OC)c3)SCCCCCCCCCCS2)ccc1O		6.25 µg/mL		resazurin	inhibition	H37Rv	-5%
Oc1ccc(Cl)cc1C(=S)Nc1cccc(F)c1					MIC	My 331/88	4 µM
O=C(/C=C/c1ccc(Cl)cc1Cl)c1ccncc1				resazurin	EC90	H37Rv	≥50 µg/mL
CC1=[N+]([O-])CC2c3c([nH]c4ccccc34)C(C(=O)OC(C)C)(C(=O)OC(C)C)CC12					MIC	H37Ra	256 µg/mL
O=c1ccc2ccc(OCc3ccc(Br)cc3)cc2o1		50 µM		fluorescence	inhibition	H37Rv	20.23%
Oc1ccc(Cl)cc1C(=S)Nc1ccc(F)cc1					MIC	My 331/88	1 µM
O=C(O)c1cn(C2CC2)c2c(Cl)c(N3C[C@@H]4CCCN[C@@H]4C3)c(F)cc2c1=O					MIC90	82 strains	0.06 µg/mL
NNOC(=O)c1ccc2cccnc2c1O					MIC50	M 607	>25 µg/mL
COc1ccccc1Nc1nc(NNc2nc(-c3ccccc3)c(C#N)c(=O)n2C)nc(Nc2ccccc2OC)n1					MIC	H37Rv	>12.5 µg/mL
Nc1ccc(S(=O)(=O)Nc2cnccn2)cc1		128 µg/mL		BACTEC	inhibition	H37Rv	93%
O=C1C=CC(O)(c2nc3ccccc3s2)C=C1					EC50	H37Rv	<6.25 µg/mL
Cc1cc(C)c2c(=O)n(CC(O)CN3CCN(CCO)CC3)sc2n1					MIC	H37Rv	>12.5 µg/mL
C=CCOC(=O)N[C@H]1[C@H](O[C@@H](C)[C@H](NC(=O)OCc2ccccc2)C(=O)OC(C)(C)C)O[C@H](COC(C)=O)[C@@H](OC(C)=O)[C@@H]1OC(C)=O				resazurin	MIC bound	H37Rv	>6.25 µg/mL
C#CCN1C(=O)c2c(C)cc(C)nc2S1(=O)=O					MIC	H37Rv	>12.5 µg/mL
Cc1cc(=O)oc2cc(OCCN3CCC(Cc4ccccc4)CC3)ccc12		1 µM		fluorescence	inhibition	H37Rv	4.9%
Cc1ccc(S(=O)(=O)N/N=C(\CCN2CCCC2)CC(c2ccccc2)c2c(O)c3ccccc3oc2=O)cc1				BACTEC	MIC bound	H37Rv	>12.5 µg/mL
NNC(=O)Cc1cc(C2CCCCC2)nc2c(C3CCCCC3)cccc12				BACTEC	MIC	H37Ra	>6.25 µg/mL
O=C1C=CC(O)(c2cc3ccccc3s2)C=C1					EC50	H37Rv	>6.25 µg/mL
c1ccc(ON2N=C(c3ccccc3)C(n3ccnc3)C2c2ccccc2)cc1					MIC	H37Rv	8 µg/mL
O=C(Nc1ccccc1)c1cc(C2C3CC4CC(C3)CC2C4)c2ccccc2n1				BACTEC	MIC	H37Ra	3.125 µg/mL
Cc1nn2c(C(=O)O)nnc2s1				BACTEC	MIC	H37Rv	≥128 µg/mL
O=C(O)CCc1ccc(O)c2ncccc12					MIC50	H37Rv	0.1–0.5 µg/mL
O=C(/C=C/c1ccccc1O)c1ccncc1				resazurin	EC90	H37Rv	≥50 µg/mL
Cn1c(NNc2nc(Nc3ccc(Cl)cc3Cl)nc(Nc3ccc(Cl)cc3Cl)n2)nc(-c2ccc(Cl)cc2)c(C#N)c1=O					EC50	H37Rv	>12.5 µg/mL
O=C1C=CC(O)(c2cccc3ccccc23)C=C1					MIC	H37Rv	<6.25 µg/mL
C=CCN1C(=O)c2c(C)cc(C)nc2S1(=O)=O					EC50	H37Rv	>12.5 µg/mL
CC(C)OC(=O)C1(C(=O)OC(C)C)C[C@H]2CNC[C@H]2c2c1[nH]c1ccccc21					MIC	H37Ra	32 µg/mL
Cn1c(NNc2nc(Nc3ccccn3)nc(Nc3ccccn3)n2)nc(-c2ccc(Cl)cc2)c(C#N)c1=O					MIC	H37Rv	>12.5 µg/mL
O=C(O)c1cc(O)c2ncccc2c1					MIC50	H37Rv	5–10 µg/mL
O=C1C=CC(O)(c2cccs2)C=C1					EC50	H37Rv	<6.25 µg/mL
COc1ccc(Nc2nc(NNc3nc(-c4ccc(Cl)cc4)c(C#N)c(=O)n3C)nc(Nc3ccc(OC)cc3)n2)cc1					EC50	H37Rv	<12.5 µg/mL
Cc1c(C#N)c(=O)oc2cc(OCc3ccccc3)ccc12		100 µM		fluorescence	inhibition	H37Rv	44.56%
CC(Sc1ncnc2c1cnn2CCCCO)C(N)=O					MIC	H37Rv	>6.25 µg/mL
CCCCc1ccc(NC(=S)c2cc(Cl)ccc2O)cc1					MIC	My 331/88	4 µM
Cn1c(NNc2nc(Nc3ccc(F)c(Cl)c3)nc(Nc3ccc(F)c(Cl)c3)n2)nc(-c2ccc(Cl)cc2)c(C#N)c1=O	VERO				MIC	H37Rv	>12.5 µg/mL
Cc1cc([N+](=O)[O-])c2ncccc2c1					MIC50	M 607	>25 µg/mL
CC1CN(c2c(F)cc3c(=O)c(C(=O)O)cn(C4CC4)c3c2O)CCN1.O=S1CCCC1.[Cl][Rh]([Cl])[Cl]		0.2 µg/mL		agar diffusion	zone	ATCC 27294	17 mm
Cc1cc(C)c2c(=O)n(CO)sc2n1					EC50	H37Rv	<12.5 µg/mL
CCc1ccc(NC(=S)c2cc(Cl)ccc2O)cc1					MIC	My 331/88	1 µM
CCc1ccc(O)c2ncccc12					MIC50	H37Rv	0.5 µg/mL
CCCNC(=O)c1cc(C2C3CC4CC(C3)CC2C4)c2ccccc2n1				BACTEC	MIC	H37Ra	>6.25 µg/mL
Cc1ccc2nc(SCc3ccccn3)[nH]c2c1					MIC	My 331/88	125 µM
O=C1C=CC(O)(c2ccccc2)C=C1					MIC	H37Rv	>6.25 µg/mL
Cc1onc(-c2ccccc2)c1C(=O)N[C@@H]1C(=O)N2[C@@H]1SC(C)(C)[C@@H]2C(=O)O		5 µg/mL	21 d	colony count	inhibition	Gordon	95%
NNC(=O)c1c(C2CCCC2)nc2ccccc2c1C1CCCC1				BACTEC	MIC	H37Ra	>6.25 µg/mL
CC1(C)S[C@@H]2[C@H](NC(=O)C(C(=O)O)c3ccccc3)C(=O)N2[C@H]1C(=O)O		20 µg/mL	21 d	colony count	inhibition	Gordon	94%
NC(=O)CSc1ncnc2c1cnn2COCC(O)CO					MIC	H37Rv	>6.25 µg/mL
Cc1ccc(O)c2ncccc12					MIC50	M 607	1–5 µg/mL
COC(=O)C1(C(=O)OC)CCC(=O)n2c1c(/C=C/[N+](=O)[O-])c1ccccc12					MIC	H37Ra	64 µg/mL
Cc1ccc(Nc2nc(NNc3nc(-c4ccc(Cl)cc4)c(C#N)c(=O)n3C)nc(Nc3ccc(C)cc3C)n2)c(C)c1					EC50	H37Rv	<12.5 µg/mL
c1ccc(CSc2nc3ccccc3[nH]2)nc1					MIC	My 331/88	500 µM
N=C1C=CC(O)(c2nc3ccccc3s2)C(SCC(NC(=O)CCC(N)C(=O)O)C(=O)NCC(=O)O)C1					EC50	H37Rv	>6.25 µg/mL
O=C(/C=C/c1ccc(Cl)cc1)c1ccncc1				resazurin	EC90	H37Rv	≥6.25 µg/mL
N#Cc1cc(SCc2ccncc2)ccn1					MIC	My 331/88	1000 µM
Cc1c2oc3c(C)ccc(C(=O)NCCN4CCOCC4)c3nc-2c(C(=O)NCCN2CCOCC2)c(N)c1=O				BACTEC	MIC bound	H37Rv	>12.5 µg/mL
CCSC1CC(=O)CC(SCC)C1(O)c1ccccc1					EC50	H37Rv	>6.25 µg/mL
Cn1c(NNc2nc(Nc3ccc(F)c(Cl)c3)nc(Nc3ccc(F)c(Cl)c3)n2)nc(-c2ccccc2)c(C#N)c1=O					MIC	H37Rv	12.5 µg/mL
Clc1ccc(C2=NN(Oc3ccccc3)C(c3ccc(Cl)cc3Cl)C2n2ccnc2)c(Cl)c1					MIC	H37Rv	4 µg/mL
CCOC(=O)c1cc(NC(=S)NC(=O)c2cccs2)c(NC(C)=O)o1		12.5 µg/mL		BACTEC	inhibition	H37Rv	0%
Cc1cc(C)c2c(=O)n(CC(O)CN3CCC(Cc4ccccc4)CC3)sc2n1		12.5 µg/mL			inhibition	H37Rv	100%
COc1cc(-c2ccc(N=Nc3ccc(N)nc3N)c(OC)c2)ccc1N=Nc1ccc(N)nc1N		12.5 µg/mL		BACTEC	inhibition	H37Rv	72%
NNC(=O)c1cc(C2CCCC2)c2cccc(C3CCCC3)c2n1				BACTEC	MIC	H37Ra	6.25 µg/mL
Cc1ccc2cccnc2c1O					MIC50	M 607	1–5 µg/mL
CCC(Sc1ncnc2c1cnn2COCCO)C(N)=O					MIC	H37Rv	>6.25 µg/mL
O=C(O)c1c(Cl)c(Cl)c(Cl)c(Cl)c1-c1c2ccc(=O)c(O)c-2oc2c(O)c(O)ccc12				BACTEC	MIC bound	H37Rv	>12.5 µg/mL
CC[C@@H](CO)NCCN[C@@H](CC)CO					MIC	H37Rv	1 µg/mL
COC(=O)C1(C(=O)OC)CCC(O)n2c1c(/C=C/[N+](=O)[O-])c1ccccc12					MIC	H37Ra	256 µg/mL
O=C1C(O)=C(c2ccccc2C(=O)O)C(=O)C(O)=C1c1ccccc1C(=O)O				BACTEC	MIC bound	H37Rv	>12.5 µg/mL
Cc1c(Cl)c(=O)oc2cc(OCc3ccc(Br)cc3)ccc12		1 µM		fluorescence	inhibition	H37Rv	2.18%
O=C1NC23C(=O)N(C4CCCCC4)CC2(Cc2ccccc2)c2ccccc2N3C1=O		12.8 µg/mL		BACTEC	inhibition	H37Rv	26%
C[C@H]1NCc2cc(-c3ccc4c(=O)c(C(=O)O)cn(C5CC5)c4c3OC(F)F)ccc21					MIC50	10 strains	0.0625 µg/mL
CN(C)C1C(=O)C(C(=O)NCNCCC(=O)O)=C(O)C2(O)C(=O)C3=C(O)c4c(O)cccc4C(C)(O)C3CC12				BACTEC	MIC bound	H37Rv	>12.5 µg/mL
N#Cc1cc(SCc2cccc3ccccc23)ccn1					MIC	My 331/88	>125 µM
COc1c2ccoc2nc2c(OC)c(OCC(O)C(C)(C)O)ccc12				BACTEC	MIC	H37Rv	≥12.8 µg/mL
COC1(c2nc3ccccc3s2)C=CC(=NS(=O)(=O)c2ccc(C)cc2)C=C1					EC50	H37Rv	>6.25 µg/mL
O=C1CCCCCCCCCCCCCCCO1					MIC	H37Rv	4 µg/mL
CCCCCCNC(=O)c1cc(C2C3CC4CC(C3)CC2C4)c2ccccc2n1		6.25 µg/mL		BACTEC	inhibition	H37Ra	12%
CC1(C)Nc2cccc3c(N=Nc4ccc(N=Nc5ccccc5)c5ccccc45)ccc(c23)N1					MIC	INH-r	1 µg/mL
NNC(=O)c1cc(C2CCCC2)c2c(C3CCCC3)cccc2n1		6.25 µg/mL		BACTEC	inhibition	H37Ra	90%
S=C(SCc1ccc(Cl)cc1)N1CCN(C(=S)SCc2ccc(Cl)cc2)CC1				BACTEC	MIC	H37Rv	≥128 µg/mL
c1ccc2c(CSc3nc4ccccc4s3)cccc2c1					MIC	My 331/88	500 µM
O=c1c2ccccc2[se]n1-c1cccnc1				BACTEC	MIC bound	H37Rv	≤12.5 µg/mL
OCC12CCCn3c1c(c1ccccc13)CCNC2					MIC	H37Ra	64 µg/mL
CC1(C)N=C(C(N)=O)c2ncn(N)c2N1		12.5 µg/mL		BACTEC	inhibition	H37Rv	0%
N#Cc1cc(SCc2ccccn2)ccn1					MIC	My 331/88	8 µM
CCCCCCCCCCc1c2nc(c(CCCCCCCCCC)c3ccc([nH]3)c(CCCCCCCCCC)c3ccc([nH]3)c(CCCCCCCCCC)c3nc1C=C3)C=C2				resazurin	MIC bound	H37Rv	>6.25 µg/mL
Cc1cnc2c(O)cccc2c1					MIC50	H37Rv	0.5–1 µg/mL

9 of the rows above, restated:

SMILES | cell line | dose | conditions | read by | measure | strain or isolate | result
OCC12CCCn3c1c(c1ccccc13)CCNC2 |  |  |  |  | MIC | H37Ra | 64 µg/mL
COC(=O)C1(C(=O)OC)CCC(=O)n2c1c(/C=C/[N+](=O)[O-])c1ccccc12 |  |  |  |  | MIC | H37Ra | 64 µg/mL
O=C1NC23C(=O)N(C4CCCCC4)CC2(Cc2ccccc2)c2ccccc2N3C1=O |  | 12.8 µg/mL |  | BACTEC | inhibition | H37Rv | 26%
Cc1cnc2c(O)cccc2c1 |  |  |  |  | MIC50 | H37Rv | 0.5–1 µg/mL
NC(=O)CSc1ncnc2c1cnn2COCC(O)CO |  |  |  |  | MIC | H37Rv | >6.25 µg/mL
c1ccc2c(CSc3nc4ccccc4s3)cccc2c1 |  |  |  |  | MIC | My 331/88 | 500 µM
CCc1ccc(O)c2ncccc12 |  |  |  |  | MIC50 | H37Rv | 0.5 µg/mL
CN(C)C1C(=O)C(C(=O)NCNCCC(=O)O)=C(O)C2(O)C(=O)C3=C(O)c4c(O)cccc4C(C)(O)C3CC12 |  |  |  | BACTEC | MIC bound | H37Rv | >12.5 µg/mL
Cc1c(C#N)c(=O)oc2cc(OCc3ccc(Br)cc3)ccc12 |  | 1 µM |  | fluorescence | inhibition | H37Rv | 4.73%